From patent US20230105082A1, “ANTIMICROBIAL COMPOSITIONS FOR PET FOOD PRODUCTS” (priority 2020, published 2023)

Key:
[1] = tested on: cats; assay: Two-bowl palatability test, cats; type: in vivo, cat; conditions: versus Control Diet
[2] = tested on: dogs; assay: Two-bowl palatability test, dogs; type: in vivo, dog; conditions: versus Control Diet
[3] = 1000 ppm in fat coated on kibble
[4] = 500 ppm in fat coated on kibble

SMILES	CAT % A (consumption ratio of Food A) [1, 3] [%]	DOG % A (consumption ratio of Food A) [2, 3] [%]	CAT % A (consumption ratio of Food A) [1, 4] [%]	DOG % A (consumption ratio of Food A) [2, 4] [%]
O=P(O)(O)O [Composition 1, Phosphoric acid]	49	71	–	–
CCCC(=O)O [Composition 2, Butyric acid]	–	–	55	18
CCCCC(=O)O [Composition 3, Valeric acid]	–	–	–	28
CC(O)C(=O)O (stereo not shown) [Composition 4, Lactic acid]	–	–	42	32
